In patent US20230218663A1, “COMPOSITIONS AND METHODS FOR TREATING A SARS-COV-2 INFECTION” (priority 2020, published 2023):

Experiments:
[1] = test system: SARS-CoV-2; conditions: Caco-2
[2] = test system: VeroE6 cells; test: Cell viability assay (CellTiterGlo), VeroE6; set-up: species or system African green monkey; conditions: 48 hrs incubation; concentration based on metal content
Method: (§1) The CellTiterGlo® luminescent assay (Promega Corporation, Madison, Wis., USA) was performed to detect the cytotoxicity of the selected compounds as previously described^39. Briefly, VeroE6 cells (4×10^4 cells per well) and Caco2 cells (4×10^4 cells per well) were incubated with different concentrations of the individual compound in 96-well plates for 48 hrs, followed by the addition of the substrate and measurement of luminance 10 min later. Ridaura and Au(PEt3)Cl were dissolved in DMSO, and the final percentage of DMSO was kept at 1% in culture medium.

[3] = test system: Caco2 cells; test: Cell viability assay (CellTiterGlo), Caco2; set-up: species or system human; conditions: 48 hrs incubation; concentration based on metal content
Method: as §1

Bi(TPyP) (TPyP: tetra(4-pyridyl)porphyrin)
maximal viral load reduction in Caco2 cell culture supernatant [1]: ~3 logs
maximal viral load reduction in the Caco2 cell lysate [1]: ~2 logs
CC50 [2]: > 400 µM
CC50 [3]: > 400 µM
